PubChem BioAssay AID504761 | Drosophila RNAi Screening Center | 2011
Purpose: 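Genome-wide fly cell screen for genes dengue virus requires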 (primary screen). Cell system: D.Mel-2 cells from Drosophila. Reagent: long dsRNA against Drosophila genes. Challenge: infection with dengue virus type 2; dose and infection time not stated. Read-out: 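Per well on two replicate plates, imaging gave the percent of cells positive for viral envelope protein, ranked by infection, and a nuclear count of cells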. Direction: infection score: higher = more virus-infected cells; cell count: higher = more cells in the well. Active means: 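Low infection ranks in the two replicates (chance level up to 0.065) followed by a retest with a 1.5-fold or larger significant decrease, p below 0.05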. Meaning of the calls: active = confirmed: knock-down lowers infection; inactive = not picked or not confirmed.
The deposit covers about 22,000 reagents; shown is an unselected part of those that have a named target and a result. Of all reagents, 116 (0.52%) are marked active. 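Calls depend on retest data that are not deposited; infection was ranked per plate without normalising between plates; the unit of the infection score is not given.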 Raw values are not corrected between plates. The numbers tell different reagents against one gene apart. Reagent sequences are not shown. Not stated in the record: the amount of reagent, the time to read-out.

Target gene	dsRNA no.	infection score, replicate 1	infection score, replicate 2	cell count, replicate 1	cell count, replicate 2	Call
CG8066	1	6.53	1.38	6022	6598	inactive
CG8066	2	4.54	8.37	6480	6240	inactive
Cpr12A	1	10.3	5.85	5687	6410	inactive
CG1722	1	2.17	0.35	6224	6588	inactive
CG15539	1	1.28	14.8	705	3666	inactive
Eig71Ef	1	1.32	2.12	5894	6189	inactive
Son	1	2.62	10.6	6022	5987	inactive
ClpX	1	8.64	7.94	6055	6861	inactive
CG13117	1	7.28	5.83	6267	5985	inactive
CG13117	2	7.93	14.8	6430	6086	inactive
Ent2	1	1.38	3.31	6471	6343	inactive
Ent2	2	8.83		2242	379	inactive
ppk3	1	14.2	30.5	4818	6107	inactive
ppk3	2	7.05	2.23	6170	6591	inactive
asf1	1	3.8	16.9	5309	5257	inactive
asf1	2	2.84	5.69	5385	5484	inactive
Mrp5	1	27	4.05	5641	6989	inactive
Mrp5	2	17.5	15.3	5677	2443	inactive
Mrp5	3	9.05	8.87	6541	6302	inactive
CG7407	1	3.46	7.03	6501	6459	inactive
loj	1	9.79	1.95	6528	6777	inactive
CG12213	1	8.79	6.8	6254	6680	inactive
CG12213	2	13.1	1.49	6137	7052	inactive
CG12213	3	14.3	4.74	4602	1203	inactive
Stlk	1	5.19	1.25	6718	6562	inactive
Fbxl7	1	2.1	6.48	6097	6424	inactive
Fbxl7	2	13.1	7.07	6752	6438	inactive
Cpr92A	1	2.28	9.96	6459	5973	inactive
Cpr92A	2	10.8	4.26	5577	6637	inactive
Pof	1	30.2	47.5	6228	5215	inactive
Tti1	1	10.5	28.8	5886	5515	inactive
Tti1	2	15.3	11.4	5574	6636	inactive
CG11426	1	6.23	7.75	6647	6835	inactive
CG11426	2	1.89	9.61	6628	6480	inactive
Tusp	1	3.31	3.73	6650	6457	inactive
Qsox3	1	2.48	3	6815	6793	inactive
Dph5	1	4.06	3.52	6900	6157	inactive
Dph5	2	8.21	12.9	6969	6586	inactive
EcR	1	12.8	9.52	6094	6490	inactive
EcR	2	14.7	43.4	4351	4768	inactive

Part of the list above, limited to “cell count, replicate 2”.
Tti1 #2	6636
CG11426 #1	6835
CG11426 #2	6480
Tusp	6457
